Test system: HIV-1NL-D
Experiment: HIV-1 in vitro infection of CD4+ T cells
Format: cell-based
Settings: treatment before infection, MOI 0.001
Description: Preparation of HIV-1 virus stocks. HIV-1 proviral DsRed-tagged DNA pNL-D (derived from the prototype HIV-1 proviral DNA pNL432) was kindly provided by Dr. Yasuko Tsunetsugu-Yokota. 293T cells were used to prepare viral stocks following published protocols with minor modifications. In brief, 293T cells were plated at 0.5×10^6/well in 12-well plates and transfected with 2 μg pNL-D using Lipofectamine 2000 (Invitrogen) for 48 hours. Culture supernatant was treated with benzonase (1U/ml) for 30 minutes at 37 C, cleared by filtration and titrated on 293T cells. Stocks were stored at −80 C.
HIV-1 in vitro infection. CD4^+ T cells were stimulated with anti-CD3 (1 μg/ml) and anti-CD28 (1 μg/ml) for 48 hours and subsequently infected with HIV-1 at a MOI of 0.001 (concentration within the physiological range). Viability and cytokine secretion was measured every 48 hours for a total of 11 days after infection.
For HIV-1 infection on TLR7-deficient cells, CD4^+ T cells were stimulated as above and transduced with the corresponding lentiviral particles. 48 hours after transduction, the cells were infected with HIV-1NL-D at a MOI of 0.001. Viability and frequency of HIV-1-infected cells were measured at different time points by LIVE/DEAD cell dye staining and fixation with 1% PFA (to avoid DsRed signal loss). […]

Substance: IL-2: IL-2 from the AIDS Research and Reference Reagent Program, added six hours before HIV-1 infection
- frequency of HIV-1-infected CD4+ T cells: did not affect
